Tested on: equine cecal contents
Assay: in vitro model of equine hindgut, carbohydrate overload: pH and amine production

Substance: cornstarch
- concentrations of the caecal-derived amines phenylethylamine, isoamylamine, putriscine and cadaverine (end of 24 hour incubation, carbohydrate 1 g/100 mL, compared to control, HPLC): significantly greater concentrations
- pH in the model system (incubated 24 h with carbohydrate 1 g/100 mL, compared with control without added carbohydrate): fell significantly

Source: patent US20090232853A1, “TREATMENT OF LAMINITIS” (priority 2005, published 2009)
